A mixed list of measured activities; the numbers were collected in NIAID ChemDB.

Shared fields: host cell toxicity; measure: CC50

Rows are shuffled and stem from different studies.

compound	cells	method	result
Clc1ccc2c(NCCCN3CCN(c4ccnc5cc(Cl)ccc45)CC3)ccnc2c1	Human foreskin fibroblasts	MTT / absorbance	1.43 µM
Nc1cc(OCCOCP(=O)(O)O)ncn1	L1210	-	<10 µM
N#CCc1c(N)nc(N)nc1OCCOCP(=O)(O)O	HepAD38	-	>330 µM
c1cc(CN2CCCNCCNCCCNCC2)ccc1CN1CCCNCCNCCCNCC1	MAGI-CCR5	-	>10 µM
CCC[CH2][Sn]([F])([F])[CH2]CCC.c1cnc2c(c1)ccc1cccnc12	VERO	-	0.09 µg/mL
CCN(C)CCNc1ncnc2c1ncn2C[C@H](C)OCP(=O)(O)O	P3HR-1	-	5.6 µg/mL
CSc1c(C)n([O-])c2cc(Cl)c(Cl)cc2[n+]1=O	VERO	-	3.1 µg/mL
O=P(O)(O)COCCn1cnc2c(NC3CC3)ncnc21	P3HR-1	-	>100 µg/mL
CO[C@@]12[C@H](COC(N)=O)C3=C(C(=O)C(C)=C(N)C3=O)N1C[C@H]1[C@@H]2N1C(=O)C1N2C(=O)[C@@H](NC(=O)Cc3ccccc3)[C@H]2SC1(C)C	VERO	-	<0.41 µg/mL
Nc1cc(=O)n(CCOCP(=O)(O)O)cn1	L1210	-	<10 µM
CC1(C)N=c2cc3c(cc2N1c1ccc(Cl)cc1)=Nc1ccccc1N3c1ccc(Cl)cc1	VERO	-	1.25 µg/mL
Cc1cc(OCCOCP(=O)(O)O)nc(N)n1	CCRF-CEM	-	<10 µM
COc1cc2c(oc(=O)c3cc(C)cc(OC)c32)c2c(C3OC(C)C(O)C(C)(O)C3O)ccc(O)c12	VERO	-	1.24 µg/mL
OC[C@@H]1C[C@@H](O)[C@H](n2cnc3c(NC4CCCCCC4)ccnc32)O1	Sheep chondrocytes G81092	-	210 µM
O=c1[nH]c2ccccc2n1C1CCN(CCCC(c2ccc(F)cc2)c2ccc(F)cc2)CC1	n4mBid	luminescence	7 µM
COc1ccc(-c2cc(=O)c3c(OC)cc(OC)c([C@H]4C(=O)c5c(OC)cc(OC)cc5O[C@@H]4c4ccc(OC)cc4)c3o2)cc1	BSC-1	visual reading	<60 µg/mL
O=C(NC(N1CCN(c2cc3c(cc2F)c(=O)c(C(=O)O)cn3C2CC2)CC1)(C(F)(F)F)C(F)(F)F)c1ccccc1	VERO	-	>10 µg/mL
O=C(O)P(=O)(O)O	U373-MG	-	145 µg/mL
Cc1nc2nc(C)n(CCN3CCOCC3)c(=O)c2c(-c2cccc([N+](=O)[O-])c2)c1C(=O)CCCCCCCCCCN1CCC(c2ccccc2)(c2ccccc2)CC1	VERO	-	2.52 µg/mL
OC[C@H]1O[C@@H](n2cnc3c(NC4CCCCCC4)nc(Cl)nc32)CC1O	Sheep chondrocytes G81092	MTT	98 µM
CCC[C@H](NC(=O)[C@@H]1[C@H]2CCC[C@H]2CN1C(=O)[C@@H](NC(=O)[C@@H](NC(=O)c1cnccn1)C1CCCCC1)C(C)(C)C)C(=O)C(=O)NC1CC1	n4mBid	luminescence	30 µM
CC(=O)O[C@@]12C[C@@H](C)[C@@]3(O)[C@@H](C=C(CO)C[C@]4(O)C(=O)C(C)=C[C@@H]34)[C@@H]1C2(C)C	J-Lat 10.6	MTT	>100 µM
Nc1ncnc2c1ncn2C[C@H]1COP(=O)(O)CO1	CBMC	MTT	72 µM
Nc1ccn([C@H]2CC[C@@H](CO)O2)c(=O)n1	P3HR-1	-	50 µg/mL
Nc1ccn([C@H]2CC[C@@H](CO)O2)c(=O)n1	BFU-E	-	0.7 µM
O=C1C=C[C@@H](COC2OC(CO)C(O)C(O)C2O)O1	VERO	-	0.7 µg/mL
O=C1C(=O)N(CN2CCN(c3ccnc4cc(C(F)(F)F)ccc34)CC2)c2cccc(Cl)c21	Human foreskin fibroblasts	MTT / absorbance	7.95 µM
OC[C@H]1O[C@@H](n2cnc3c(NC4CC4)ncnc32)C[C@@H]1O	MDBK	-	>400 µM
C[N+](C)=c1ccc2nc3c(cc(N)c4ccccc43)oc-2c1	VERO	-	0.34 µg/mL
CC[C@H](NC(=O)c1c(C)c(-c2ccccc2)nc2ccccc12)c1ccccc1	n4mBid	luminescence	>30 µM
Nc1nc2c(ncn2CC[C@@H](O)CO)c(=O)[nH]1	HSB-2	-	277 µM
CCC[CH2][Sn]([Cl])([Br])[CH2]CCC.c1cnc2c(c1)ccc1cccnc12	VERO	-	0.09 µg/mL
Nc1ccn(C[C@H]2COP(=O)(O)CO2)c(=O)n1	HSB-2	-	109 µM
Nc1nc(N)c(Br)c(OCCOCP(=O)(O)O)n1	HEPAD79	-	>292 µM
O=C(N/N=C(\c1ccccc1)c1ccc(O)cc1O)c1ccncc1	VERO	-	414 µg/mL
Cc1cn([C@H]2C[C@H](N=[N+]=[N-])[C@@H](CO)O2)c(=O)[nH]c1=O	PM1	MTT / absorbance	>100 µM
Cc1cn([C@H]2C[C@H]([N+](=O)[O-])[C@@H](CO)O2)c(=O)[nH]c1=O	P3HR-1	-	>100 µg/mL
C[S@@](=O)CCCCN=C=S	TW01	WST	11.55 µM
OC(CCN1CCCCC1)(c1ccccc1)C1CC2C=CC1C2	n4mBid	luminescence	30 µM
OC[C@H]1O[C@@H](n2cnc3c(NC4CC4)nc(Cl)nc32)[C@H](O)[C@@H]1O	Sheep chondrocytes G81092	MTT	225 µM
Nc1ccc2nc3ccc(=O)cc-3n(-c3ccccc3)c2c1	VERO	-	2.6 µg/mL
Nc1ncnc2c1ncn2[C@@H]1O[C@H](CO)[C@@H](O)[C@@H]1O	HSB-2	MTT	3.2 µM
NC(=S)N=Nc1c(O)n(CN2CCN(c3ccnc4cc(C(F)(F)F)ccc34)CC2)c2cccc(Br)c12	Human foreskin fibroblasts	MTT / absorbance	5.75 µM
Nc1nc2c(ncn2C[C@@H](CO)OCP(=O)(O)O)c(=O)[nH]1	HSB-2	-	122 µM
OC[C@H]1O[C@@H](n2cnc3c(NC4CCCCCC4)ncnc32)C[C@@H]1O	Sheep chondrocytes G81092	-	108 µM
Nc1nc(=O)n([C@@H]2CS[C@H](CO)O2)cc1F	BFU-E	-	220 µM
Nc1nc2c(ncn2COC(CO)CO)c(=O)[nH]1	CBMC	MTT	160 µM
CSC(=S)N/N=C(\C)c1ccc[nH]1	VERO	-	25 µg/mL
O=c1cc(-c2ccc(O)c(-c3c(O)cc(O)c4c(=O)cc(-c5ccc(O)cc5)oc34)c2)oc2cc(O)cc(O)c12	BSC-1	neutral red	<60 µg/mL
C[C@H](COc1cc(N)nc(N)n1)OCP(=O)(O)O	HEPAD79	-	>360 µM
OC[C@H]1O[C@@H](n2cnc3c(NC4CCCC4)cc(Cl)nc32)[C@H](O)[C@@H]1O	MDBK	-	180 µM
NC(=O)C#CC(N)=O	VERO	-	6.15 µg/mL
Nc1nc(NC2CC2)cc(OCCOCP(=O)(O)O)n1	L1210	-	<10 µM
CN(C)CCC=C1c2ccccc2CCc2ccccc21	n4mBid	luminescence	30 µM
Nc1nc(Cl)nc2c1ncn2[C@@H]1O[C@H](CO)[C@@H](O)[C@H]1O	Sheep chondrocytes G81092	MTT	<50 µM
O=[N+]([O-])c1cccc2ncccc12	Human foreskin fibroblasts	MTT / absorbance	11.3 µM
O=C1C[C@@H](c2ccc(O)cc2)Oc2cc(O)c(-c3c(O)cc4c(c3O)C(=O)C[C@@H](c3ccc(O)cc3)O4)c(O)c21	MDCK	neutral red	5 µg/mL
O=C(O)P(=O)(O)O	HSB-2	-	818 µM
Nc1ncnc2c1ncn2C[C@@H](CO)OCP(=O)(O)O	HSB-2	MTT	42 µM
O=C(N/N=C/c1ccc([N+](=O)[O-])s1)c1ccncc1	VERO	-	3.6 µg/mL
O=c1[nH]c(=O)n([C@H]2C[C@H](O)[C@@H](CO)O2)cc1/C=C/Br	U373-MG	-	>200 µg/mL
NC(=S)NN=C1CCCCCCC1	VERO	-	20.71 µg/mL
O=C(O)CP(=O)(O)O	CBMC	MTT	325 µM
COc1ccc2cc1Oc1ccc(cc1)CC1c3c(cc(OC)c4c3Oc3cc5c(cc3O4)CCNC5C2)CCN1C	VERO	-	1.45 µg/mL
OC[C@H]1O[C@@H](n2cnc3c(NC4CCCCCC4)nc(Cl)nc32)[C@H](O)[C@@H]1O	Sheep chondrocytes G81092	-	100 µM
C=C1C(=O)[C@@]23CC[C@H]4C(C)(CCC[C@@]4(C)C(=O)OC)[C@@H]2CC[C@]1(O)C3	VERO	-	62.5 µg/mL
CN(C)c1cc(=O)n(CCOCP(=O)(O)O)c(N)n1	CCRF-CEM	-	<10 µM
Cc1c2c(c(C)c3c4c(oc13)CCCC4)C=NCC2	VERO	-	3.83 µg/mL
Nc1cc(SCCOCP(=O)(O)O)nc(N)n1	HepAD38	-	>357 µM
COc1cc(C)c2sc3ccccc3c(=O)c2c1NCCN(C)C.O=C(O)/C=C/C(=O)O	VERO	-	1.77 µg/mL
Nc1nc(N)c2ncn(CCOCP(=O)(O)O)c2n1	HSB-2	-	164 µM

A second listing of 10 rows from above:

| compound | cells | method | result |
|---|---|---|---|
| O=C1C=C[C@@H](COC2OC(CO)C(O)C(O)C2O)O1 | VERO | - | 0.7 µg/mL |
| CC(=O)O[C@@]12C[C@@H](C)[C@@]3(O)[C@@H](C=C(CO)C[C@]4(O)C(=O)C(C)=C[C@@H]34)[C@@H]1C2(C)C | J-Lat 10.6 | MTT | >100 µM |
| O=c1cc(-c2ccc(O)c(-c3c(O)cc(O)c4c(=O)cc(-c5ccc(O)cc5)oc34)c2)oc2cc(O)cc(O)c12 | BSC-1 | neutral red | <60 µg/mL |
| OC[C@H]1O[C@@H](n2cnc3c(NC4CCCCCC4)ncnc32)C[C@@H]1O | Sheep chondrocytes G81092 | - | 108 µM |
| Nc1nc2c(ncn2C[C@@H](CO)OCP(=O)(O)O)c(=O)[nH]1 | HSB-2 | - | 122 µM |
| CO[C@@]12[C@H](COC(N)=O)C3=C(C(=O)C(C)=C(N)C3=O)N1C[C@H]1[C@@H]2N1C(=O)C1N2C(=O)[C@@H](NC(=O)Cc3ccccc3)[C@H]2SC1(C)C | VERO | - | <0.41 µg/mL |
| Nc1ncnc2c1ncn2C[C@H]1COP(=O)(O)CO1 | CBMC | MTT | 72 µM |
| N#CCc1c(N)nc(N)nc1OCCOCP(=O)(O)O | HepAD38 | - | >330 µM |
| COc1cc(C)c2sc3ccccc3c(=O)c2c1NCCN(C)C.O=C(O)/C=C/C(=O)O | VERO | - | 1.77 µg/mL |
| Nc1nc(N)c2ncn(CCOCP(=O)(O)O)c2n1 | HSB-2 | - | 164 µM |

An empty or dashed field is not shown. CCn: concentration that lowers growth or viability of the cells by n%.